Results: patent US20140107015A1, “PHARAMACEUTICAL COMPOSITION FOR PREVENTING OR TREATING HUMAN IMMUNODEFICIENCY VIRUS” (priority 2012, published 2014)

Assays:
[1] = test system: C8166 cell lines infected with HIV-1IIIB; conditions: 0.5 mg/ml; 48 hours after HIV-1IIIB infection; MTT; untreated cells = 100%
[2] = target: T1, HIV-1 reverse transcriptase (Human immunodeficiency virus type 1 group M subtype B, UniProt P05959); type: biochemical; conditions: 0.05 mg/ml and 0.1 mg/ml
T1 construct: endogenous in cells; host or cells: C8166 and CEM-SS cells infected with HIV-1RF (lysates)

[3] = target: HIV-1 reverse transcriptase (UniProt P04585); conditions: mean of HIV-1RF and HIV-1IIIB

## Chitosan oligomer-Leucine [COS-L]
[1]
  cell viability of HIV-1-infected C8166 cells: 70.4%

## Chitosan oligomer-Tyrosine [COS-Y]
[2]
  reverse transcriptase activity at low concentrations: inhibited even at the above low concentrations
[3]
  IC50 (RT inhibition): 213 µg/mL

## Chitosan oligomer-(Threonine-Tyrosine) [COS-TY]
[3]
  IC50 (RT inhibition): 192 µg/mL

## Chitosan oligomer-Glutamic acid [COS-E]
[1]
  cell viability of HIV-1-infected C8166 cells: 81.3%

## Chitosan oligomer-Aspartic acid [COS-D]
[3]
  IC50 (RT inhibition): 213 µg/mL
